Laboratory results reported in the supplement of paper PMC9931576.
Human monoclonal antibodies against the spike receptor-binding domain (heavy:light variable regions). IC50 against pseudoviruses bearing the spike of naturally observed variants; lower = stronger; >10 µg/ml means not reached at the top dose. No active / inactive call. The stated detection limit is 0.0005 µg/ml; values near or below 0.001 µg/ml lie at the floor of the assay.

Assays:
Assay in all cases: pseudovirus neutralization IC50; higher = weaker neutralization
[1] = molecular target: SARS-CoV-2 Omicron BA.1 spike pseudovirus
Method: (§1)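 Single-round VSV luciferase pseudovirus mixed with antibody dilutions for 1 h and put on Huh-7 cells for about a day; IC50 from the dose curve.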

[2] = molecular target: SARS-CoV-2 Omicron BA.2 spike pseudovirus
Method: as §1

[3] = molecular target: SARS-CoV-2 Omicron BA.2.75 spike pseudovirus
Method: as §1

[4] = molecular target: SARS-CoV-2 Omicron BA.2.75.2 spike pseudovirus
Method: as §1

[5] = molecular target: SARS-CoV-2 Omicron BA.5 spike pseudovirus
Method: as §1

[6] = molecular target: SARS-CoV-2 Omicron BM.1.1.1 spike pseudovirus
Method: as §1

[7] = molecular target: SARS-CoV-2 Omicron BQ.1.1 spike pseudovirus
Method: as §1

[8] = molecular target: SARS-CoV-2 Omicron BR.2 spike pseudovirus
Method: as §1

[9] = molecular target: SARS-CoV-2 Omicron CA.1 spike pseudovirus
Method: as §1

[10] = molecular target: SARS-CoV-2 Omicron XBB spike pseudovirus
Method: as §1

[11] = molecular target: SARS-CoV-2 early D614G spike pseudovirus
Method: as §1

| Binder | pseudovirus neutralization IC50 [1] [µg/mL] | pseudovirus neutralization IC50 [2] [µg/mL] | pseudovirus neutralization IC50 [3] [µg/mL] | pseudovirus neutralization IC50 [4] [µg/mL] | pseudovirus neutralization IC50 [5] [µg/mL] | pseudovirus neutralization IC50 [6] [µg/mL] | pseudovirus neutralization IC50 [7] [µg/mL] | pseudovirus neutralization IC50 [8] [µg/mL] | pseudovirus neutralization IC50 [9] [µg/mL] | pseudovirus neutralization IC50 [10] [µg/mL] | pseudovirus neutralization IC50 [11] [µg/mL] |
| --- | --- | --- | --- | --- | --- | --- | --- | --- | --- | --- | --- |
| BD56-1357 (protein) chain 1: QVQLVQSGSELKKPGASVKVSCKASGYTFNSYVINWVRQAPGQGLEWMGWINTNTGNPTYAQGFTGRFVFSLDTSVSTAYLQISSLKAEDTAVYYCAREGGIATRDWFDPWGQGTLVTVSS chain 2: QSVLTQPPSVSEAPRQRVTISCSGSSSNIGNNAVKWYQQLPGKAPKLLIYYDDLLSSGVSDRFSGSKSGTSASLAISGLQSEDEADYYCAAWDDSLNGLVFGGGTKLTVL | 0.0083 | 0.0016 | 0.00148 | 3.84 | > 10 | > 10 | > 10 | > 10 | > 10 | > 10 | > 10 |
| BD56-1373 (protein) chain 1: QVHLVQSGTEVKKPGASVKVSCKASGYSFTSYDINWVRQATGQGLEWMGWMNPISGDTGFAQKFQGRVTMTRNTSLSTAYMELSSLRSEDTAVYYCARGARTEFQGELTLFDYWGQGTLITVSS chain 2: HSALTQPASVSGSRGQSITISCTGTSSDVGSYNLVSWYQQHPGKAPKLIIYEVSKRPSGVSNRFSGSKSGNMASLTISGLQAEDEAEYYCCSYAGGSTVFGGGTKLTVL | 0.00227 | 0.000322 | 0.000122 | 0.00583 | 0.00044 | 0.113 | 0.00209 | 0.0558 | 0.0165 | 0.00331 | > 10 |
| BD56-1210 (protein) chain 1: EVQLVESGGGLVQPGRSLRLSCAASGFTFDDHAMHWVRQAPGKGLEWVSGITWNTDNIGYADSVKGRFTISRDNAKNSLYLQMNSLRVEDTALYYCVKDIVDSGWYYFDYWGQGTLVIVSS chain 2: QSALTQPASVSGSPGQSLTISCTGTSSDIGSYILVSWYQQHPGKAPKLMIYEASKRPSGVSNRFSGSKSGNTASLTISGLQPEDEADYYCCSYAGSTTLVFGGGTKLTVL | 0.191 | 0.0294 | > 10 | 3.07 | > 10 | > 10 | > 10 | > 10 | > 10 | > 10 | > 10 |
| BD56-1356 (protein) chain 1: DVQLVQSGAEVKKPGESLKISCKGSGYSFASYWIAWVRQMPGKGLEWMGIIYPGDSDTRYSPSFQGQVTISADKSISTAYLQWSSLKASDTAMYYCATGLTTLGGFDPWGQGTLVTVSS chain 2: SYVLTQPPSVSVAPGQTARITCGGNNIGSKSVHWYQQKPGQAPVLVVYDDRGRPSGMPERFSGSNSGNTATLTISSVEAGDEADYYCQMWDSSSDFWVFGGGTKLTVL | 0.00436 | 0.000261 | 0.0165 | 0.44 | 0.0337 | 1.38 | 1.38 | 0.755 | 0.471 | 2.7 | > 10 |
| BD56-1349 (protein) chain 1: EVQLVESGGGLVQPGGSLRLSCAASGFTFSSYWMNWVRQAPGRGLEWVANIKQDGSEKYYVDSVKGRFTISRDNAKNSLYLQMNSLRAEDTAVYYCVTHGDEVYWGQGTLVTVSS chain 2: DIQMTQSPSSLSASVGDRVTITCQASQDISTYLNWFQQKPGKAPKLLIYDASNLETGVPSRFSGSGSGTDFTFTISSLQPEDIATYYCQQYDNLGPTFGGGTKVEIK | > 10 | 0.00994 | 0.31 | 0.833 | 0.0701 | > 10 | 0.851 | 0.382 | 0.701 | > 10 | > 10 |
| BD56-291 (protein) chain 1: EVQLVQSGAEVKKPGESLKISCQGSGYSYINFWIAWVRQMPGKGLEWMGIIYPDDSDTRYNPSFQGQVTMSVDKSISTAYLQWTTLKASDTAIYYCARHNNNWYGDYYYALDVWGQGTTVTVSS chain 2: DIQMTQSPSSLAASVGDRITITCQATQDISNYLNWYQQKPGKAPKLLIYDASNLETGVPSRFSGSGSGTDFSLTISSLQPEDIATYYCQQFDNLPLTFGGGTKVQIK | 0.0196 | 0.129 | 3.21 | > 10 | > 10 | > 10 | > 10 | > 10 | > 10 | > 10 | > 10 |
| BD56-1372 (protein) chain 1: EVQLVESGGGVVQPGGSLRLSCAASGFTFDNFAMHWVRQAPGKGLEWVSLISGDGSRIYYGDSVKGRFTISRDNSKDSLYLQMNSLRTEDTALYYCGKDMGFGPPAKYYYYMDVWGKGTTVTVSS chain 2: QSVLTQPPSASGTPGQRVTISCSGSSSNIGNNYVYWYQQLPGTAPKLLIYRNNQRPSGVPDRFSGSKSGTSASLAISGLRSEDEADYYCAAWDDSLSGGVFGGGTKLTVL | 0.0168 | 0.00283 | 0.531 | > 10 | 0.0129 | > 10 | 0.948 | 0.731 | > 10 | > 10 | > 10 |
| BD56-1353 (protein) chain 1: QVQLVESGGGVVQPGRSLRLSCAASGFPFSSYGMHWVRQAPGKGLEWVAVIWFDGSNKYYADSVKGRFTISRDNFKNTLYLQMNSLRVEDTAVYYCARDPYDILTGYGFDYWGQGTLVTVSS chain 2: QSALTQPASVSGSPGQSITISCTGTSSDVGGYKYVCWYQQHPGKAPKLMIYDVSNRPSGVSHRFSGSKSGNTASLTISGLQAEDEADYYCSSFTSSSTLIFGGGTKLTVL | 0.0359 | 0.0211 | > 10 | > 10 | > 10 | > 10 | > 10 | > 10 | > 10 | > 10 | > 10 |
| BD56-1368 (protein) chain 1: EVQLVESGGGLIQPGGSLRLSCAASGFIVSSNYMSWVRQAPGKGLEWVSVIYPGGTTYYADSVKGRFSISRDNSKNTLYLRMNSLRAEDTAVYYCARSRGWGTFDYWGQGTLVTVSS chain 2: DIQMTQSPSSLSASVGDRVTITCQASQDIANYLNWYQQKPGKAPKLLIYDASNLETGVPSRFSGSGSGTDFTFTISSLQPEDIATYYCQQYDNLPPYTFGQGTKLEIK | 0.00923 | 0.000433 | 0.0298 | > 10 | 0.000566 | > 10 | 0.88 | 0.433 | > 10 | > 10 | > 10 |
| BD56-1370 (protein) chain 1: QVQLQESGPGLVKPSETLSLTCTVSGGSISNNYWSWIRQPPGKGLEWIGYIYYTGSTNYNPSLKSRVTISVDTSKNQFSLKLSSVTAADTAVYYCARVDWSYSGGGYFDYWGRGTLVTVSS chain 2: SYVLTQPPSVSVAPGQTARITCGGNNIGTESVHWYQQKPGQAPVVVVYDDSDRPSGIPERFSGSDSGNTATLTIRRVEAGDEADYYCQVWDTSDHVIFGGGTKLTVL | 0.000503 | 0.000278 | 0.000181 | 0.00598 | 0.00114 | 0.00321 | 0.0229 | 0.00383 | 0.00491 | 0.0557 | > 10 |
